Measured values from several laboratories, pooled; numbers as filed in NIAID ChemDB.

Common to all: whole-cell or culture tests; organism: HIV-1; method: cytopathic effect; read-out: EC50

ECn is the concentration giving n% inhibition of infection, replication or growth.

compound	strain or isolate	mutations	cells	result
CCOP(=O)(OCC)C(F)(F)C[C@H]1CO[C@@H](n2cnc3c(Cl)nc(N)nc32)[C@H]1F				72.4 µM
CC1(C)[C@@H](CCO)C[C@H]1n1cnc2c(=O)[nH]c(N)nc21			CEM	>100 µg/mL
Cn1c([S-])nc2nc(-c3ccccc3)c(-c3ccccc3)nc2c1=O.[Cl][Pt+2][Cl]	IIIB		MT-4	>2.23 µg/mL
OC[C@H]1C[C@@H](n2cnc3c(=S)nc[nH]c32)CO1	IIIB		ATH8	>100 µM
CC1(C)[C@@H](CCO)C[C@H]1n1cnc2c(N)nc(N)nc21			CEM	>20 µg/mL
OC[C@H]1C[C@@H](n2cnc3cncnc32)CO1	IIIB		ATH8	>100 µM
Cc1c(Cc2cccc3ccccc23)nc(SCC(=O)c2ccc(Cl)cc2)[nH]c1=O	SO561945	RT-K103N Y181C	MT-4	≥198 µM
Nc1ncnc2c1ncn2[C@@H]1OC[C@H](CC(F)(F)P(=O)(O)O)[C@@H]1F				>100 µM
Cc1cn([C@H]2CS[C@@H](CO)O2)c(=O)[nH]c1=O			MT-4	>410 µM
COc1cccc(N2C(=O)CSC2c2c(F)cccc2Cl)c1	IIIB		MT-4	3.29 µM
Nc1ncnc2c1ncn2[C@H]1CO[C@@H](CO)S1			MT-4	>395 µM
Nc1nc(Cl)c2ncn([C@H]3CO[C@@H](CO)C3)c2n1	IIIB		ATH8	>100 µM
Cc1cn(CCCCO[C@@H]2O[C@H](CO)[C@@H](N=[N+]=[N-])[C@H]2O)c(=O)[nH]c1=O	IIIB		MT-4	>200 µg/mL
CCOP(=O)(OCC)C(F)(F)C[C@H]1CO[C@@H](n2ccc(=O)[nH]c2=O)[C@H]1F				>100 µM
Nc1nc(=S)c2ncn([C@H]3CO[C@@H](CO)C3)c2[nH]1	IIIB		ATH8	>100 µM
Nc1ncnc2c1ncn2C(CF)CCCO	IIIB		CEM	>100 µg/mL
Nc1ncnc2c1ncn2[C@H]1C=C[C@@H](OCP(=O)(O)O)C1(F)F			MT-4	19 µM
O=C1CSC(c2c(F)cccc2Cl)N1c1cccc(Br)c1	IIIB		MT-4	0.646 µM
CCOP(=O)(OCC)C(F)(F)C[C@H]1CO[C@@H](n2cc(C)c(=O)[nH]c2=O)[C@H]1F				>100 µM
CC1(C)[C@@H](CCO)C[C@H]1n1nnc2c(N)ncnc21			CEM	>100 µg/mL
Nc1nc2c(ncn2[C@@H]2CS[C@@H](CO)O2)c(=O)[nH]1			MT-4	>372 µM
Nc1ccn([C@@H]2OC[C@H](CC(F)(F)P(=O)(O)O)[C@@H]2F)c(=O)n1				>100 µM
Nc1ncnc2c1ncn2[C@@H]1CO[C@@H](CO)S1			MT-4	>395 µM
Nc1nc2c(ncn2[C@H]2C=C[C@@H](CO)C2)c(=O)[nH]1			C8166	0.12 µg/mL
CC(C)c1c(Cc2ccccc2)n(COCc2ccccc2)c(=O)[nH]c1=O	IIIB		CEM	0.016 µM
Nc1nc2c(ncn2[C@H]2CC[C@@H](CO)O2)c(=O)[nH]1	IIIB		ATH8	7.5 µM
Nc1nc2c(ncn2[C@H]2CS[C@@H](CO)O2)c(=O)[nH]1			MT-4	63.2 µM
O=C1CSC(c2c(Cl)cccc2Cl)N1c1cccc([N+](=O)[O-])c1	IIIB		MT-4	0.73 µM
CCOP(=O)(OCC)C(F)(F)C[C@H]1CO[C@@H](n2cnc3c(N)nc(F)nc32)[C@H]1F				79 µM
COc1ccc(C(=O)CSc2nc(Cc3cccc4ccccc34)c(C)c(=O)[nH]2)cc1	SO561945	RT-K103N Y181C	MT-4	≥290 µM
CC1(C)[C@@H](CCO)C[C@H]1n1nnc2c(N)nc(N)nc21			CEM	>20 µg/mL
Nc1ccn([C@H]2CO[C@H](CO)O2)c(=O)n1			MT-4	>465 µM
Nc1ncnc2c1ncn2[C@H]1C=C[C@@H](OCP(=O)(O)O)O1		RT-K65R	MT-2	6.09 µM
CC(=O)CSc1nc(Cc2cccc3ccccc23)c(C)c(=O)[nH]1	SO561945	RT-K103N Y181C	MT-4	≥58.2 µM
CCOP(=O)(CO[C@@H]1C=C[C@H](n2cnc3c(Cl)nc(N)nc32)C1(F)F)OCC			MT-4	90 µM
Nc1ccn(CCCC(O)CF)c(=O)n1	IIIB		CEM	>100 µg/mL
CCc1cccc(N2C(=O)CSC2c2c(F)cccc2F)c1	IIIB		MT-4	0.78 µM

An empty or dashed field is not shown. Conditions beyond the fields shown may differ between rows.